Strings that start with PEPTIDE1 are HELM notation: dots part the residues, brackets hold end groups and non-standard residues.
Assay: general procedure: peptide synthesis; resin 103 (semicarbazone-linked activated ketone resin; polystyrene or pegylated polystyrene with BHA, MBHA or AM); DIC/HOBt; or TBTU/HOBt/DIPEA
Settings: whole synthesis, HPLC (phosphate), scale of the general procedure 0.25 mmol

PEPTIDE1{[ac].S.Y.V.K.[Ala(d,l)-CO].[NHBn]}$$$$V2.0
purity (crude or final not stated): 81%

From patent US6291640A (Boehringer Ingelheim Ltd., priority 1998, dated 2001)
